Experimental data taken from patent CN115850461A (INST MICROBIOLOGY CAS, dated 2023).

How the values were obtained:
GX/P2V/2017 假病毒 S蛋白 = GX/P2V/2017 假病毒 S蛋白 (sarbecovirus GX/P2V/2017); test: cell-based or functional assay
GX/P2V/2017 RBD蛋白 = GX/P2V/2017 RBD蛋白 (sarbecovirus GX/P2V/2017); test: SPR, Biacore […]; 74 captured on protein A chip, RBD as analyte

B1: 沙贝病毒广谱人源中和抗体74 (antibody, V domains shown)
VH: QVQLVQSGAQLKKPGESLKISCKGSGYNFSRYWIAWVRHMPGKGLEVMGIIYPDDSDTRYSPSVRGQVTISADKSTSIVYLQWSSLKASDTGIYYCARFGAGMTGMPRYFDTTRWFDPWGQGTQVTVSS
VL: QSVLTQPPSVSGAPGQRVTISCLGGSSNIGAGYDVHWYQHLPGAAPKLLISGNSNRPSGVPARFSGSKSGTSASLAITGLQAEDEADYYCQSYDNDLSQVFGGGTKLTVLG
- IC50, 假病毒中和 (GX/P2V/2017 假病毒 S蛋白): 0.39 µg/mL
- Kd (GX/P2V/2017 RBD蛋白): < 0.0227 nM
- koff (GX/P2V/2017 RBD蛋白): 9.83e-07 s⁻¹
- kon (GX/P2V/2017 RBD蛋白): 440000 M⁻¹ s⁻¹
